Measured data: PubChem BioAssay AID1259414 (Drosophila RNAi Screening Center, 2018)
The deposit covers about 24,000 reagents; shown is a random part of those that have a named target and a result. In the full data, about 1,210 (5%) were called active. 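Inactive calls also include excluded dsRNAs with several or no targets, genes unexpressed in JW18, and well A1, regardless of score.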 Entries without a mark were called inactive. Names joined by + are all predicted targets of the reagent.

Aim: 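Host factors increasing or decreasing Wolbachia levels in cultured fly cells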 (primary screen)
Cell system: Drosophila JW18 cells infected with Wolbachia
Reagent: long dsRNA against Drosophila genes, 0.25 µg dsRNA per well of a 384-well plate
Time to read-out: 5 days
Conditions: cells persistently infected with Wolbachia before knock-down; no added drug
Measurement: 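Imaged fluorescence in situ signal for Wolbachia 23S rRNA per DAPI-counted host cell, given as a robust z-score within each plate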
Scale: Wolbachia per cell robust z: higher = more Wolbachia per host cell than the plate typical
Hit rule: 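Active if absolute robust z reaches 1.5 in two or more of three replicates, leaving out multi- or no-target dsRNAs, genes unexpressed in JW18 and A1 wells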

"Wolbachia per cell robust z, rep 1","Wolbachia per cell robust z, rep 2","Wolbachia per cell robust z, rep 3",gene knocked down,dsRNA
-0.537,0.247,1.35,Gint3 + CG42306,DRSC06934
0.966,1.85,0.177,Gint3 + CG42306,DRSC29885
2.7 (active),2.31,2.09,Prosalpha6 (GeneID 34359),DRSC03401
0.288,0.533,0.378,heph (GeneID 48571),DRSC14082
-0.846,-0.574,0.522,heph (GeneID 48571),DRSC14085
-0.417,0.295,0.287,heph (GeneID 48571),DRSC16783
-3.18 (active),-0.0666,-0.843,heph (GeneID 48571),DRSC39131
-0.416,-3.36,-0.121,CG8460 (GeneID 34115),DRSC03090
-0.654,-0.439,-1.74,Gale (GeneID 38076),DRSC08234
0.891,0.241,-0.61,CG15456 (GeneID 50123),DRSC20527
-0.756,0.595,0.518,CG10347 (GeneID 32141),DRSC19352
0.213,-0.099,-1.39,CG13471 (GeneID 39604),DRSC10015
-1.81,-1.31,-0.833,fend (GeneID 31843),DRSC17601
-0.332,0.139,0.0592,fend (GeneID 31843),DRSC17867
0.317,-0.136,1.48,COX6B (GeneID 32989),DRSC19590
0.87,0.226,0.984,COX6B (GeneID 32989),DRSC27409
-7.61 (active),-3.86,0.483,MetRS-m (GeneID 41733),DRSC16443
0.587,-1.48,-2.81,MetRS-m (GeneID 41733),DRSC16515
0.166,-1.81,1.27,Brf (GeneID 42087),DRSC14166
-1.76 (active),-0.711,-1.87,Brf (GeneID 42087),DRSC14167
0.11,-1.58,0.643,CG2611 (GeneID 35324),DRSC02710
-0.125,-7.99,-0.968,CG2611 (GeneID 35324),DRSC26640
0.397,0.0571,1.39,CG32537 (GeneID 318079),DRSC20073
-0.667,1.42,-0.29,CG32537 (GeneID 318079),DRSC23589
1.92,2.28,1.97,Fad2 (GeneID 44006),DRSC11165
-0.254,0.187,0.528,Fad2 (GeneID 44006),DRSC23579
0.953,1.35,-0.537,dpr15 (GeneID 41473),DRSC12891
0.253,0.326,0.647,dpr15 (GeneID 41473),DRSC14187
0.36,-0.0241,0.41,dpr15 (GeneID 41473),DRSC14188
0.387,0.428,1.28,CG14511 (GeneID 43445),DRSC14863
-0.488,-1.23,0.266,CG14511 (GeneID 43445),DRSC26574
0.743,-6.54,0.648,CG8520 (GeneID 36357),DRSC07206
0.499,-0.739,0.49,CG6665 (GeneID 36903),DRSC07006
-0.721,0.982,-0.976,E(spl)m6-BFM (GeneID 43159),DRSC16993

Called active, among the entries above:
"Wolbachia per cell robust z, rep 1","Wolbachia per cell robust z, rep 2","Wolbachia per cell robust z, rep 3",gene knocked down,dsRNA
2.7 (active),2.31,2.09,Prosalpha6 (GeneID 34359),DRSC03401
-3.18 (active),-0.0666,-0.843,heph (GeneID 48571),DRSC39131
-7.61 (active),-3.86,0.483,MetRS-m (GeneID 41733),DRSC16443
-1.76 (active),-0.711,-1.87,Brf (GeneID 42087),DRSC14167

The results go on.
"Wolbachia per cell robust z, rep 1","Wolbachia per cell robust z, rep 2","Wolbachia per cell robust z, rep 3",gene knocked down,dsRNA
-1.25,-4.89,0.86,rempA + Tspo,DRSC00533
0.9,-0.293,0.836,CG44085 (GeneID 34732),DRSC02929
0.531,-0.805,-2.71,CG44085 (GeneID 34732),DRSC23040
1.01,-0.221,0.949,Prosbeta7 (GeneID 40639),DRSC12186
-1.07,-0.39,-0.982,DEF8 (GeneID 39381),DRSC09840
-0.197,0.0309,-0.136,CG4842 (GeneID 39817),DRSC10453
0.559,-0.109,-0.404,CG30460 (GeneID 36924),DRSC06559
-0.571,-0.69,-0.166,CG30460 (GeneID 36924),DRSC23115
0.607,-3.43,-0.415,Su(H) (GeneID 34881),DRSC03445
-0.39,-0.319,0.0452,Su(H) (GeneID 34881),DRSC39115
0.142,0.0587,0.894,bs (GeneID 37890),DRSC23068
0.724,0.332,0.587,bs (GeneID 37890),DRSC25943
1.12,0.67,1.11,beat-Ic (GeneID 34945),DRSC01524
0.657,-1.73,0.958,beat-Ic (GeneID 34945),DRSC03491
-0.23,1.04,-7.92,beat-Ic (GeneID 34945),DRSC23508
1.91,1.4,0.631,beat-Ic (GeneID 34945),DRSC38988
0.447,-0.332,0.0187,COX5BL (GeneID 33919),DRSC02123
0.576,-3.32,0.721,COX5BL (GeneID 33919),DRSC27300
1.32,0.676,0.596,CG13154 (GeneID 36359),DRSC06279
0.403,0.324,0.0485,drongo (GeneID 33263),DRSC00814
0.462,-1.23,-0.314,drongo (GeneID 33263),DRSC25074
-0.719,0.307,-0.0712,Prx6c (GeneID 36098),DRSC06080
-0.857,1.25,1.06,Prx6c (GeneID 36098),DRSC28598
-0.328,-8.57,-0.355,Obp56i (GeneID 246667),DRSC05812
-0.369,-1.04,0.613,Marcal1 (GeneID 33709),DRSC02718
0.428,0.366,0.706,ClC-b (GeneID 36381),DRSC07220
0.131,-0.996,-0.781,Mettl14 (GeneID 34138),DRSC03073
0.899,-0.0664,0.335,Dscam1 (GeneID 35652),DRSC07407
0.204,-1.36,0.0545,Dscam1 (GeneID 35652),DRSC21562
-1.22,0.333,0.674,Dscam1 (GeneID 35652),DRSC22383
1.61,1.36,0.325,Dscam1 (GeneID 35652),DRSC29101
-0.946,-0.124,0.671,CG32201 (GeneID 317911),DRSC22452
-0.00242,0.0754,-0.248,beat-IIIb (GeneID 35031),DRSC02435
0.891,-0.281,0.41,LManIV (GeneID 34204),DRSC03222
-2.68,0.426,-0.447,LManIV (GeneID 34204),DRSC27811
-4.07,1.08,1.68,CG12439 (GeneID 34234),DRSC02168
-0.188,0.0689,-0.441,CG11674 (GeneID 32374),DRSC19414
-0.318,-1.2,-0.205,CG15597 (GeneID 40767),DRSC12283
-1.01,0.901,-0.323,CG15597 (GeneID 40767),DRSC24202
-0.257,0.139,0.0486,CG11291 (GeneID 37541),DRSC04097
-0.157,-1.05,-0.237,CG11291 (GeneID 37541),DRSC41400
-1.84,-1.96,-1.88,esn (GeneID 53557),DRSC05039
-0.534,-1.43,0.352,esn (GeneID 53557),DRSC06181
0.489,-1.25,-2.38,esn (GeneID 53557),DRSC07612
0.73,0.0471,-0.448,esn (GeneID 53557),DRSC27647
0.375,0.232,-1.51,eIF3g2 (GeneID 42422),DRSC14275
-3.66,0.398,1.23,eIF3g2 (GeneID 42422),DRSC28960
-0.365 (active),-5.12,-3.47,Vps13B (GeneID 43550),DRSC15060
-3.53,-0.566,-1.14,CG7377 (GeneID 2768978),DRSC10830
0.557,0.645,-1.43,CG6479 (GeneID 39930),DRSC10647
0.331,-1.21,0.168,CG9010 (GeneID 36904),DRSC07320
0.384,1.28,0.779,BicC (GeneID 34946),DRSC02005
-0.0332,-0.0877,-0.011,BicC (GeneID 34946),DRSC29676
